The values below come from US12570608B2, “Compound derived from quinoline, use of a compound, composition and method for the treatment or prophylaxis of a condition caused by a blood parasite” (FUNDÃÇAO OSWALDO CRUZ, priority 2019, dated 2026).

The data set concerns β-hematin formation. The experiment in a line: Inhibition of β-hematin formation (lipid-catalysed heme crystallization). It is filed as biochemical. The conditions noted are these: fold higher than observed for CQ.

As for `NCCNc1ccnc2cc(Cl)ccc12` [CEQ], the “β-hematin inhibitory concentration relative to CQ” value came out at 1.6 fold.
